The results in this text go back to publication PMC5913352.

By UniProt entry, the sequences of proteins in these tests, tags left out. Where a name states a change or a piece, a line headed by the entry shows the natural chain unless it says otherwise.
UniProt Q8CXZ9: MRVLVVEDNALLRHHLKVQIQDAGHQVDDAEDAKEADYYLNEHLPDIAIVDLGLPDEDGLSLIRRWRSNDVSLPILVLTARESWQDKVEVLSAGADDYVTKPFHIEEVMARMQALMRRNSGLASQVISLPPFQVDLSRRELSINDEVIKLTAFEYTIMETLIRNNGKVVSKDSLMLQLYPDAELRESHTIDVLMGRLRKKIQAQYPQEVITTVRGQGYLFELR

The target of data set [1] is PhoP-P (phosphorylated with acetylphosphate) (UniProt Q8CXZ9). The data set is described as follows: EMSA. The settings on record: phosphorylated PhoP 0-2.0 uM, binds more strongly than non-phosphorylated (P < 0.01); recombinant protein; residues 1-223; protein details: pET-28a fusion (His tag, HisTrap purified); probe letters rebuilt from the primers and the genome.
The target of data set [2] is PhoP (non-phosphorylated) (UniProt Q8CXZ9). In words: EMSA. To be noted: non-phosphorylated PhoP 0-2.0 uM; recombinant protein; residues 1-223; protein details: pET-28a fusion (His tag, HisTrap purified); probe letters rebuilt from the primers and the genome.

Construct, isoform or probe ends are uncertain for at least one entry.

As for “TCAATAATAAGCAGAACATCCAATAAAAACATACGCAATAACCTGAAGGATCCTGCCATATAAAAACAAACATTGTTTTTACATTTAATCTCTCTTGATTTTGTTTAATAATTGTTTATGTAAGATAATTTATTTTTATAATGATTACATGAAAACAAAAGAGGTTGGATATGAAATTGTTATTACTTACAGGTGCAACA (double strand) [PhlyF promoter 200 bp]”, the binding result in data set [1] and in data set [2] was “binds” throughout.
